## Results of single-concentration screens

A: 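Whole-cell growth test on Mycobacterium tuberculosis, read after 3 days in glucose-containing 7H9 medium; the read-out is not stated. Concentration: 500 µM. Higher reads as more growth inhibition (inferred: compounds with an IC50 in retests scored well above the rest). About 18,000 compounds were tested under these conditions; 7.9% (about 1,400) showed 50% or more at least once.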
B: 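Growth of Mycobacterium tuberculosis over 4 days (cholesterol / DPPC medium with tyloxapol); the read-out is not stated. Concentration: 500 µM. Direction is inferred from retests: higher values go with more growth inhibition. Of about 18,000 compounds tested this way, about 900 (5%) reached 50% or more in at least one test.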

Results are given as percent effect. The controls that fix the scale are not given in the record; negative values are as filed. Many other results are left out here, so strong results are more common than in the screen. A dash means the value is not listed here; it may have been measured.

| Compound | A | B |
|---|---|---|
| `COCC(O)CNc1c(C)c(C)nc2ccccc12` (stereo unspecified) | -41.23 | - |
| `CCC(O)CN1CCN(CC2CCOCC2)CC1` (stereo unspecified) | - | 3.082 |
| `COC(=O)Cc1cc(OC)ccc1S(N)(=O)=O` | - | 3.559 |
| `CCN(C)S(=O)(=O)N1CCC[C@H]1CO` | 9.402 | - |
| `Cn1nc(C(N)=O)cc1C(F)(F)F` | 5.468 | - |
| `CC(COCC(F)(F)F)NC(=O)c1cccnc1O` (stereo unspecified) | 18.66 | - |
| `O=C(COc1ccc(F)cc1)NC1CC1` | 44.52 | 36.14 |
| `CN(CCOc1ccccc1)C(=O)Nc1ccn(C)n1` | - | 36.63 |
| `NC1CC(c2cc(NCCCn3ccnn3)ncn2)C1` (stereo unspecified) | 1.758 | - |
| `N#Cc1cccc(OCCSc2nnc[nH]2)c1` | 37.9 | 41.74 |
| `NC[C@@H]1C[C@H]2CC[C@H]1O2` | - | 11.4 |
| `Cc1cccc(C)c1NC(=O)CN1CCNCC1` | -5.374 | 6.605 |
| `O=C(CCc1ccc(F)cc1)NCC1CCNC1` (stereo unspecified) | -3.876 | - |
| `c1cnc(NCc2ccc(N3CCOCC3)nc2)nc1` | -14.39 | - |
| `COC(=O)c1ccc(CN2CCCS(=O)(=O)CC2)o1` | 10.32 | -2.43 |
| `CCCS(=O)(=O)NCC(O)Cc1ccccc1` (stereo unspecified) | 69.93 | - |
| `CCn1ccnc1SC1CCCCNC1=O` (stereo unspecified) | 9.985 | - |
| `CC(=O)NC1CCN(C2CCCCC2)CC1` | -1.108 | - |
| `CSCc1ccc(C(=O)NCCc2ncnn2C)o1` | - | 9.263 |
| `CNCC(=O)NC(C)c1nc(-c2ccc(Br)cc2)no1` (stereo unspecified) | 64.47 | -18.24 |
| `OCCC1CCN(Cc2cccnc2)C1` (stereo unspecified) | - | -12.88 |
| `O=C(CSC1=NCCN1)Nc1ccc(Cl)cc1` | 25.59 | - |
| `CNCCc1nc2cc(OC)ccc2[nH]1` | - | 31.35 |
| `CN(C)c1ccc(CN2CCOCC(O)C2)cn1` (stereo unspecified) | - | -3.345 |
| `O=C(NCCCN1CCOCC1)NCc1ccsc1` | 12.22 | - |
| `CC(NC(=O)CCCn1cncn1)c1cnn(C)c1` (stereo unspecified) | 7.088 | - |
| `CCC(C)C(=O)NCCNc1cnccn1` (stereo unspecified) | 18.26 | - |
| `C[C@@]1(O)CCN(C(=O)c2cnc(C3CC3)nc2)C[C@@H]1O` | 8.425 | - |
| `CC(C)(C)C1CNCCO1` (stereo unspecified) | - | 2.471 |
| `O=C(NCCNC(=O)c1ccccc1)Nc1nncs1` | 7.748 | - |
| `CC(=O)N1CCN(Cc2cncs2)C(C)(C)C1` | - | -0.8803 |
| `CN(C)S(=O)(=O)N1CCC(Oc2ccccc2Cl)CC1` | 84.12 | 72.89 |
| `NCc1cccc(-n2ccnn2)c1` | - | 5.698 |
| `CS(=O)(=O)N1CCN(c2ccccc2F)CC1` | 8.478 | - |
| `CCOC(=O)C1(C)CCC(=O)NC1` (stereo unspecified) | 4.489 | - |
| `Cn1ccnc1C(O)c1ccc(F)cc1` (stereo unspecified) | -13.42 | - |
| `CC(O)CN(C(=O)NCCCn1ccnc1)C(C)C` (stereo unspecified) | -0.764 | - |
| `CCO[C@H]1CN(C)C[C@@H]1NC(=O)c1ccc[nH]1` | -2.742 | - |
| `O=C(Nc1cccc(OCC(F)F)n1)C1CCOC1` (stereo unspecified) | - | 8.313 |
| `CN(CCc1ccncc1)CCN1CCCC1=O` | 10.31 | - |
| `Cc1nc(CN2[C@@H]3CC[C@H]2CNC(=O)C3)c[nH]1` | - | 4.825 |
| `COc1nc(CO)c(C)cc1C` | 10.05 | - |
| `NCc1noc(-c2cccs2)n1` | 19.49 | 17.7 |
| `Cn1cccc1C(=O)NC(=O)CSc1ncccn1` | - | 3.82 |
| `CC(CNC(=O)NCc1cc[nH]n1)N1CCOCC1` (stereo unspecified) | 11.63 | - |
| `CSCCC(CO)NC(=O)c1occc1C(C)C` (stereo unspecified) | 60.31 | 63.62 |
| `CCCN(CCO)CC(=O)N1CCCC(C)C1` (stereo unspecified) | - | 73.21 |
| `COc1ccc(OC)c(CCN)c1` | 22.62 | 6.723 |
| `O=C(c1cccnc1O)N1CCC(N2CCCCC2)C1` (stereo unspecified) | - | 2.461 |
| `CN1C(=O)C[C@H](CN)[C@H]1c1ccccc1` | -8.338 | - |
| `NC1CCCN(Cc2ccccc2)C1` (stereo unspecified) | - | 51.65 |
| `Cc1ccc(NC(=O)N2CCSCC2)cc1C(N)=O` | - | -13.83 |
| `CSc1ccc(C(=O)NCCCc2ncc[nH]2)cc1` | 2.921 | - |
| `CCc1nc(CSc2ncnn2C)no1` | -3.744 | - |
| `CCS(=O)(=O)NCCCn1ccnc1C(C)C` | 4.805 | - |
| `Cc1cccnc1NC1=NS(=O)(=O)c2ccccc21` | - | -0.7363 |
| `O=C1CCCCN1c1ccc(S(=O)(=O)NC2CC2)cc1` | - | -18.49 |
| `CC(NC(=O)CCCn1cccc1)c1cnn(C)c1` (stereo unspecified) | -0.6145 | - |
| `COc1cc(NCCN(C)S(C)(=O)=O)ncn1` | 22 | - |
| `CCCNC(=O)Nc1ccc(N2CCOCC2)nc1` | -7.2 | - |
| `Cc1cnc(C2CCCN(C(=O)c3nc(=O)[nH][nH]3)C2)s1` (stereo unspecified) | - | 4.093 |
| `CCC(C)(C)NC(=O)c1scnc1C` | -10.74 | - |

For reference, 4 entries once more:

| Compound | A | B |
|---|---|---|
| `CCO[C@H]1CN(C)C[C@@H]1NC(=O)c1ccc[nH]1` | -2.742 | - |
| `CC(COCC(F)(F)F)NC(=O)c1cccnc1O` (stereo unspecified) | 18.66 | - |
| `O=C(c1cccnc1O)N1CCC(N2CCCCC2)C1` (stereo unspecified) | - | 2.461 |
| `COCC(O)CNc1c(C)c(C)nc2ccccc12` (stereo unspecified) | -41.23 | - |

From ChEMBL document CHEMBL3988442, “University of Dundee, Small-Polar-MMV Screening Library” (2021).